We go through six compounds from US7932240B2, “Phosphadiazine HCV polymerase inhibitors IV” (dated 2011).

Protein sequences, listed by entry. Tags and fused reporters are not part of them. Residues count along the entry.
UniProt O92972, 2420-3010 limits assumed: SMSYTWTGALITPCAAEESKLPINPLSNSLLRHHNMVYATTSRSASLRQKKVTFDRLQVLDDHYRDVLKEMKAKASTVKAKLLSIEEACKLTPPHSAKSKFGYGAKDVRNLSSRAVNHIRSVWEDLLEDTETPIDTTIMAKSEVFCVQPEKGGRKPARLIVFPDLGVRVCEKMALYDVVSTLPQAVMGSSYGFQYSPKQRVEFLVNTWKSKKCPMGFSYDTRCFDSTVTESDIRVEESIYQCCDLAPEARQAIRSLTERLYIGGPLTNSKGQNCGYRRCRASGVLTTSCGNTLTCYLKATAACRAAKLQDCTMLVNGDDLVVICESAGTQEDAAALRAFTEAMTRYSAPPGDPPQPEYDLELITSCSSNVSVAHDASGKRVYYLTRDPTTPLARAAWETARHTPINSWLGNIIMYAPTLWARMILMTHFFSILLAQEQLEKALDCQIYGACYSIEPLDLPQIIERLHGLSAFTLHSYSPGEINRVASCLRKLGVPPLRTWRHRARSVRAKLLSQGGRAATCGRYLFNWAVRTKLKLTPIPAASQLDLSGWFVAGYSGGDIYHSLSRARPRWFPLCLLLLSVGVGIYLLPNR
UniProt P27958, 2421-3011 limits assumed: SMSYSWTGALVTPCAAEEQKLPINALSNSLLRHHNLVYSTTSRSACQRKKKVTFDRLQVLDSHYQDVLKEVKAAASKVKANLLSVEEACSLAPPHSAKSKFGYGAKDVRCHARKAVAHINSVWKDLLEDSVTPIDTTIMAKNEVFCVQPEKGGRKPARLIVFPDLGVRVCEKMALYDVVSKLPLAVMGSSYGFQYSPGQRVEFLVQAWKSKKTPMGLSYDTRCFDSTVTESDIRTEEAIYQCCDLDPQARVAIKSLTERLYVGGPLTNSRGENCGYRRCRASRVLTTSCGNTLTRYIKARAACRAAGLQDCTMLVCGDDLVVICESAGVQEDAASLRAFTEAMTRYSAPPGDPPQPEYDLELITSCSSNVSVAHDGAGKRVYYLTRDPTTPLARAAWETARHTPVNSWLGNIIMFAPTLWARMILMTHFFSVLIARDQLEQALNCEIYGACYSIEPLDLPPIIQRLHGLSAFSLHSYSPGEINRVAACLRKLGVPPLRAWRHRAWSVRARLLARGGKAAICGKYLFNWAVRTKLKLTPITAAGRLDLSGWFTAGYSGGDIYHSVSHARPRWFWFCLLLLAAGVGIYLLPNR

Several values for one entry are separate records, joined by “and”; a condition that tells them apart may be missing. Equal values may be shown once. Read-outs that look alike come from different tables or passages of the source.

Data set [1] relates to Huh-7 cells containing HCV Con1 subgenomic replicon (GS4.1 cells). As to the kind of experiment: Cytotoxicity (CC50, viability) alongside the HCV replicon assay. (In general: Replicon systems follow genome replication, usually without infectious particles.)
The subject of data set [2] is HCV Con1 subgenomic replicon (genotype 1b) in Huh-7 cells (GS4.1 cells). In words: HCV replicon assay (NS4A ELISA).
In data set [3] the target is HCV genotype 1b polymerase (strain J4) (Hepatitis C virus genotype 1b, UniProt O92972). As to the kind of experiment: HCV polymerase assay (BrUTP incorporation ELISA), genotype 1b. The conditions noted are these: read-out: IC50-1b; Table 2. (In general: An ELISA detects its analyte on a solid surface through an enzyme-linked reagent.)
Data set [4] deals with HCV genotype 1a polymerase (Hepatitis C virus genotype 1a, UniProt P27958). As to the kind of experiment: HCV polymerase assay (BrUTP incorporation ELISA), genotype 1a. The conditions noted are these: Table 2.
The target in data set [5] is human DNA-dependent RNA polymerase II (Homo sapiens, UniProt P24928+P30876). In words: RNA polymerase II transcription assay (HeLaScribe nuclear extract). The conditions noted are these: run-off transcript band intensity; compound at 100 μM; N = 1.
Data set [6] has as its target human DNA polymerase beta (Homo sapiens, UniProt P06746). As to the kind of experiment: Human cellular DNA polymerase beta assay. The note with it: read-out: Mean IC50 Values (μM) ± Standard Deviation, human DNA polymerase beta; Table 9; N = 2.
[7] abbreviates: Table 1, NS4A expression by ELISA after 72 hours, two values per cell.

As usually defined, the CC50 is the concentration at which the toxic effect on the cells reaches its halfway point. The low end stands for greater toxicity to the cells, the high end for lower toxicity to the cells. One may read the EC50 as the concentration that produces a half-maximal response. For `CCOc1ccc2c(c1)NC(C1=C(O)C(C(C)(C)C)N(CCC(C)(C)C)C1=O)=NP2(=O)OCC` (stereo not shown), the half-maximal cytotoxic concentration (CC50) in data set [1] (Table 1, two values per cell) is 32000 nM and 35900 nM. Besides, the concentration giving a half-maximal response (EC50) in data set [2] (setting [7]) is 7390 nM and 8030 nM.
One may read the IC50 as the concentration needed to halve the response being measured. For `CCOP1(=O)N=C(C2=C(O)C(C(C)(C)C)N(CCC(C)(C)C)C2=O)Nc2ccc(NS(C)(=O)=O)cc21` (stereo not shown), the values for the IC50 in data set [3] and in data set [4] (read-out: IC50-1a) were 12 nM and 61 nM, respectively. Further, the CC50 in data set [1] (Table 1, two values per cell) is above 75000 nM; in data set [1] (Table 2), above 75000 nM. For the same compound, in data set [4] (polymerase 1a versus 1b), the “1a/1b FC” value is on record as 5. Moreover, the EC50 was 1.09 nM and 1.8 nM in data set [2] (setting [7]); 6.5 nM in data set [2] (read-out: EC50-1b, Table 2, replicon genotype 1b).
In the case of `CCOP1(=O)N=C(C2=C(O)C(C(C)(C)C)N(Cc3ccc(F)c(F)c3)C2=O)Nc2ccc(NS(C)(=O)=O)cc21` (stereo not shown), the cytotoxic concentration (CC50) in data set [1] (Table 1, two values per cell) was above 75000 nM. For the same compound, the concentration giving a half-maximal response (EC50) in data set [2] (setting [7]) is 22.6 nM and 14.5 nM.
In turn, `CCOP1(=O)N=C(C2=C(O)C(C3CCC3)N(CCC(C)(C)C)C2=O)Nc2ccc(NS(C)(=O)=O)cc21` (stereo not shown) yielded a cytotoxic concentration (CC50) in data set [1] (Table 1, two values per cell) above 75000 nM. Besides, the EC50 in data set [2] (setting [7]) is 468 nM and 305 nM.
Turning to Actinomycin D, the “Percent of positive control” value in data set [5] was 5.7%. In addition, the IC50 in data set [6] was 11.6 µM.
In data set [1] (Table 1, two values per cell), `CCOP1(=O)N=C(C2=C(O)C(C(C)(C)C)N(Cc3ccc(F)c(OC)c3)C2=O)Nc2ccc(NS(C)(=O)=O)cc21` (stereo not shown) showed a CC50 above 75000 nM.
